Anti-infective test results gathered from many reports (values: NIAID ChemDB through PubChem).

Shared fields: tests in culture; species: Mycobacterium tuberculosis

Percent inhibition refers to the dose given; in toxicity tests it is the harm to the cells. a–b is a range or a potency band. MIC bound comes from a single tested concentration. A number after MIC or MFC names an inhibition level or a share of isolates. Rows are shuffled and stem from different studies. An empty or dashed field is not shown.

SMILES | strain | mutations | cells | read by | endpoint | dose | result
C=C(C)[C@@H]1CC[C@]2(C)CC[C@]3(C)[C@H](CC[C@@H]4[C@@]5(C)CC[C@H](OC(C)=O)C(C)(C)[C@@H]5CC[C@]43C)[C@@H]12 | H37Rv |  |  |  | MIC |  | >128 µg/mL
N#Cc1c(-c2ccc(Cl)cc2)[nH]c(=O)n(C2OC(CO)C(O)C(O)C2O)c1=O | H37Rv |  |  | BACTEC | inhibition | 12.5 µg/mL | 0%
COC(=O)C1(C(=O)OC)CCC(=O)n2c1c(/C=C/[N+](=O)[O-])c1ccccc12 | H37Ra |  |  |  | MIC |  | 64 µg/mL
NCC[C@H](O)C(=O)N[C@@H]1C[C@H](N)[C@@H](O[C@H]2O[C@H](CN)[C@@H](O)[C@H](O)[C@H]2O)[C@H](O)[C@H]1O[C@H]1O[C@H](CO)[C@@H](O)[C@H](N)[C@H]1O | Praha 4 | MDR |  | broth dilution | MIC99 |  | 1 µM
C[C@@H]1CCC23[C@H]1CC[C@@]2(C)C[C@@](C)(O)[C@H]3C | H37Rv |  |  |  | MIC |  | 128 µg/mL
CC(C)N=c1cc2n(-c3ccc(Cl)cc3)c3ccccc3nc-2cc1Nc1ccc(Cl)cc1 | 92-0492 (MDR) |  |  |  | MIC |  | 0.4 µg/mL
Clc1ccc2c(-c3ccccc3)cc(N3CCNCC3)nc2n1 | H37Rv |  |  |  | MIC |  | >6.25 µg/mL
[N-]=[N+]=NCCCCCCCCN1C(=O)C2(OCCO2)c2cc(Cl)ccc21 | MC2 6230 |  |  |  | MIC99 |  | 137 µM
O=[N+]([O-])c1cc(CSc2nc3ccccc3[nH]2)cc([N+](=O)[O-])c1 | My 331/88 |  |  |  | MIC |  | 4 µM
O=C(NN1CSC(=S)N(Cc2ccccc2)C1)c1ccncc1 |  |  |  |  | MIC |  | 25 µg/mL
CCOP(=O)(OCC)C(C(=O)OC)C(=O)C(=O)Nc1c(C)cc(Br)cc1C | H37Rv |  |  | resazurin | inhibition | 6.25 µg/mL | 3%
Cc1ccc(/C=N/NC(=O)Nc2ccc3c(c2)C(=O)C(=O)N3CN2CCCC2)cc1 | MDR |  |  | resazurin | MIC |  | >50 µg/mL
Cc1ccc(NC(=S)SCc2ccc3c(c2)OCO3)cc1Br | H37Rv |  |  | BACTEC | inhibition | 12.5 µg/mL | 20%
NNC(=O)c1cc(C2C3CC4CC(C3)CC2C4)nc2ccccc12 | H37Ra |  |  | BACTEC | inhibition | 6.25 µg/mL | 17%
NC(=S)c1ccc(CSc2nc3ccccc3[nH]2)cc1 | My 331/88 |  |  |  | MIC |  | 32 µM
CCn1cc(C(=O)O)c(=O)c2cc(F)c(N3CCN(CC(=O)c4ccc(OC)cc4)CC3)c(F)c21 | H37Rv |  |  | BACTEC | inhibition | 6.25 µg/mL | 29%
NNC(=O)Cc1cc(C2CCCCC2)nc2ccccc12 | H37Ra |  |  | BACTEC | MIC |  | >6.25 µg/mL
Clc1cccc(CSc2nc3ccccc3[nH]2)c1 | My 331/88 |  |  |  | MIC |  | >250 µM
O=C(N/N=C/c1ccc(Cl)cc1)Nc1ccc2c(c1)C(=O)C(=O)N2CN1CCNCC1 | MDR |  |  | resazurin | MIC |  | 25 µg/mL
Nc1nc(N)nc(-c2ccc([N+](=O)[O-])o2)n1 | ETA-R |  |  |  | MIC |  | >12.5 µg/mL
CC1COc2c(N3CCN(C)CC3)c(F)cc3c(=O)c(C(=O)O)cn1c23 | 92-0492 (MDR) |  |  |  | MIC |  | 1 µg/mL
COc1ccc2c(C)cc(N/N=C/c3cccc(C)n3)nc2c1 | H37Rv |  |  | BACTEC | MIC bound |  | ≤12.5 µg/mL
NNC(=O)c1cc(C2CCCC2)c2cccc(C3CCCC3)c2n1 | H37Ra |  |  | BACTEC | inhibition | 6.25 µg/mL | 92%
[N-]=[N+]=NCCCCN1C(=O)C2(OCCO2)c2ccccc21 | MC2 6230 |  |  |  | MIC99 |  | >347 µM
Cc1cc2nc3n(c2cc1C)C(c1c(F)cccc1F)SC3 | H37Rv |  |  | BACTEC | inhibition | 12.5 µg/mL | 72%
CCn1cc(C(=O)O)c(=O)c2cc(F)c(N3CCN(C(=O)c4ccc(Cl)cc4)CC3)cc21 | H37Rv |  |  | BACTEC | inhibition | 6.25 µg/mL | 24%
O=C1C2=C(Nc3cc([N+](=O)[O-])ccc3N2)OC1c1c2ccccc2cc2ccccc12 | H37Rv |  |  | BACTEC | inhibition | 12.5 µg/mL | 52%
O=C(NCc1ccccc1)c1cc(C2C3CC4CC(C3)CC2C4)c2ccccc2n1 | H37Ra |  |  | BACTEC | inhibition | 6.25 µg/mL | 99%
c1ccc(-c2cc3ccc(N4CCOCC4)nc3nc2N2CCCCC2)cc1 | H37Rv |  |  |  | inhibition | 6.25 µg/mL | 83%
CC1COc2c(N3CCN(C)CC3)c(F)cc3c(=O)c(C(=O)O)cn1c23 | 8666/2010 | MDR |  | broth dilution | MIC99 |  | 2 µM
CCCCCCNC(=O)c1cc(C2C3CC4CC(C3)CC2C4)c2ccccc2n1 | H37Ra |  |  | BACTEC | MIC |  | >6.25 µg/mL
CN1CN(NC(=O)c2ccncc2)CSC1=S |  |  |  |  | MIC |  | 100 µg/mL
COc1cccc(CSc2nc3ccccc3[nH]2)c1 | My 331/88 |  |  |  | MIC |  | 125 µM
Cc1cn(C2CC(COCc3ccccc3)N(CCO[Si](C)(C)C(C)(C)C)O2)c(=O)[nH]c1=O | H37Rv |  |  | resazurin | inhibition | 6.25 µg/mL | 33%
Nc1ccc2c(-c3ccccc3)cc(N3CCOCC3)nc2n1 | H37Rv |  |  |  | MIC |  | >6.25 µg/mL
C[C@@H]1CCC2(NC1)O[C@H]1C[C@H]3[C@@H]4CC=C5C[C@@H](O[C@@H]6O[C@@H](CO)[C@H](O[C@@H]7O[C@H](C)[C@@H](O)[C@H](O)[C@H]7O)[C@@H](O)[C@H]6O)CC[C@]5(C)[C@H]4CC[C@]3(C)[C@H]1[C@@H]2C | H37Rv |  |  | BACTEC | MIC |  | ≥12.5 µg/mL
CO[C@H]1/C=C/O[C@@]2(C)Oc3c(C)c(O)c4c(O)c(c(/C=N/N5CCN(C)CC5)c(O)c4c3C2=O)NC(=O)/C(C)=C\C=C\[C@H](C)[C@H](O)[C@@H](C)[C@@H](O)[C@@H](C)[C@H](OC(C)=O)[C@@H]1C | 9449/2007 | MDR |  | broth dilution | MIC99 |  | >8 µM
CO[C@H]1/C=C/O[C@@]2(C)Oc3c(C)c(O)c4c(O)c(c(/C=N/N5CCN(C)CC5)c(O)c4c3C2=O)NC(=O)/C(C)=C\C=C\[C@H](C)[C@H](O)[C@@H](C)[C@@H](O)[C@@H](C)[C@H](OC(C)=O)[C@@H]1C | SIT1688 |  |  | resazurin | MIC |  | 2 µg/mL
O=C(O)/C=C/c1ccccc1 | 90-0216 (DRUG-SUS) |  |  |  | MIC |  | 200 µg/mL
Cn1cc(NC(=O)c2cc(NC(=O)c3cc(NC=O)cn3C)cn2C)cc1C(=O)NCCC(=N)N | PAS-R |  |  |  | MIC |  | 6.4 µg/mL
c1ccc(-c2cc3ccc(N4CCCCC4)nc3nc2N2CCNCC2)cc1 | H37Rv |  |  |  | inhibition | 6.25 µg/mL | 88%
[N-]=[N+]=NCCN1C(=O)C2(OCCO2)c2cc(Cl)ccc21 | MC2 6230 |  |  |  | MIC99 |  | >340 µM
O=[N+]([O-])c1ccc(CSc2nc3ccccc3[nH]2)cc1 | My 331/88 |  |  |  | MIC |  | 62 µM
CCC(C)OC(=O)N1CCN(c2nc3nc(N4CCOCC4)ccc3cc2-c2ccccc2)CC1 | H37Rv |  |  |  | inhibition | 6.25 µg/mL | 64%
CC(C)CSc1nc2ccccc2[nH]1 | My 331/88 |  |  |  | MIC |  | >250 µM
NNC(=O)c1cc(C2CCCCC2)c2ccccc2n1 | H37Ra |  |  | BACTEC | inhibition | 6.25 µg/mL | 0%
CC(C)Sc1nc2ccccc2[nH]1 | My 331/88 |  |  |  | MIC |  | >500 µM
CC[C@@H](CO)NCCN[C@@H](CC)CO | Praha 131 | MDR |  | broth dilution | MIC99 |  | 32 µM
c1ccc(-c2cc(N3CCOCC3)nc3nc(N4CCOCC4)ccc23)cc1 | H37Rv |  |  |  | MIC |  | >6.25 µg/mL
CCOC(=O)c1nc2nc3cc(OC)c(OC)cc3cc2c(=O)[nH]1 | H37Rv |  |  | BACTEC | inhibition | 12.5 µg/mL | -21%
CC(C)OC(=O)c1cc(C=O)cc2c1[nH]c1ccccc12 | H37Ra |  |  |  | MIC |  | 128–256 µg/mL
Cc1ncc(CO)c(C2NCCS2)c1O | H37Rv |  |  | BACTEC | inhibition | 12.5 µg/mL | 0%
CC(=O)Nc1ccc(-n2cc(C(=O)O)c(=O)c3cc(F)c(N4CCN(C)CC4)cc32)c(F)c1 | H37Rv |  |  | BACTEC | inhibition | 6.25 µg/mL | 18%
COC(=O)C1=CO[C@@H](C)[C@H]2C[n+]3ccc4c([nH]c5ccccc54)c3C[C@H]12 | H37Rv |  |  | BACTEC | MIC bound |  | >128 µg/mL
Cc1ccc(/C=N/NC(=O)Nc2ccc3c(c2)C(=O)C(=O)N3CN2CCN(c3ccc(C)cc3)CC2)cc1 | MDR |  |  | resazurin | MIC |  | 25 µg/mL
NNC(=O)c1ccncc1 | H37Rv |  |  |  | MIC |  | 0.02 µg/mL
NNC(=O)c1ccncc1 | 8666/2010 | MDR |  | broth dilution | MIC99 |  | 64 µM
COc1ccccc1NC(=O)CC(=O)N1N=C(c2ccccc2)C(N=Nc2ccc(Cl)cc2)C1=O | H37Rv |  |  | BACTEC | inhibition | 12.5 µg/mL | 27%
CN[C@@H]1[C@@H](O)[C@@H](O[C@@H]2[C@@H](O)[C@H](O[C@H]3O[C@H](CN)CC[C@H]3N)[C@@H](N)C[C@H]2N)OC[C@]1(C)O | 9449/2007 | MDR |  | broth dilution | MIC99 |  | 2 µM
Cc1cccc(N2CCN(CN3C(=O)C(=O)c4cc(NC(=O)N/N=C/c5ccc(Cl)cc5)ccc43)CC2)c1 | MDR |  |  | resazurin | MIC |  | 25 µg/mL
CCOC(=O)c1cc(C(=O)c2ccccc2[N+](=O)[O-])n2c1c(Br)cc1ccccc12 |  | MDR |  | resazurin | MIC |  | 8 µg/mL
NC(=O)c1cn(-c2ccc([N+](=O)[O-])cc2F)c2cc(N3CCNCC3)c(F)cc2c1=O | H37Rv |  |  | BACTEC | inhibition | 6.25 µg/mL | 0%
NNC(=O)c1cc(C2CCCC2)c2ccccc2n1 | H37Ra |  |  | BACTEC | inhibition | 6.25 µg/mL | 0%
CS(=O)(=O)NC1=NCCN1[N+](=O)[O-] | H37Rv |  |  | BACTEC | MIC bound |  | ≤12.5 µg/mL
CN[C@@H]1[C@H](O[C@H]2[C@H](O[C@H]3[C@H](O)[C@@H](O)[C@H](N=C(N)N)[C@@H](O)[C@@H]3N=C(N)N)O[C@@H](C)[C@]2(O)C=O)O[C@@H](CO)[C@H](O)[C@H]1O | Praha 4 | MDR |  | broth dilution | MIC99 |  | >32 µM
CC(C)(O)[C@H]1CC[C@]2(C)[C@H]3CC[C@@H]4[C@@]5(C)CCCC(C)(C)[C@@H]5[C@@H](O)C[C@@]4(C)[C@]3(C)CC[C@@H]12 | H37Rv |  |  |  | MIC |  | 8 µg/mL
[N-]=[N+]=NCCCCCCN1C(=O)C(=O)c2cc(Cl)ccc21 | MC2 6230 |  |  |  | MIC99 |  | 163 µM
CCCCNC(=O)OCCN=C1c2ccccc2C(Br)C(Br)c2ccccc21 | H37Rv |  |  | BACTEC | inhibition | 12.5 µg/mL | 35%
c1ccc(CCSc2nc3ccccc3[nH]2)cc1 | My 331/88 |  |  |  | MIC |  | >62 µM
CSc1nc(N)c(NC2O[C@@H](CO)[C@H](O)[C@H]2O)c(=O)[nH]1 | H37Rv |  |  | resazurin | inhibition | 6.25 µg/mL | -13%
CCn1cc(C(=O)O)c(=O)c2cc(F)c(N3CCN(CC(=O)c4ccccc4)CC3)c(F)c21 | H37Rv |  | VERO | BACTEC | MIC |  | 3.13 µg/mL
[N-]=[N+]=NCCCCCCN1C(=O)C(=O)c2ccccc21 | MC2 6230 |  |  |  | MIC99 |  | >368 µM
CCC(C)OC(=O)N1CCN(c2ccc3cc(-c4ccccc4)c(N4CCCCC4)nc3n2)CC1 | H37Rv |  |  |  | inhibition | 6.25 µg/mL | 91%
OCC12CCCn3c1c(c1ccccc13)CCNC2 | H37Ra |  |  |  | MIC |  | 64 µg/mL
[C-]#[N+][C@@]1(C)CC[C@H]2[C@H]3[C@@H](C(=C)CC[C@@H]31)[C@H](C=C(C)C)C[C@@H]2C | H37Rv |  |  |  | MIC |  | 8 µg/mL
Cc1ccc(S(=O)(=O)ONNc2nccc3ccccc23)cc1 | H37Rv |  |  | BACTEC | MIC |  | ≥12.5 µg/mL
CCN1CCN(c2cc(-c3ccccc3)c3ccc(=O)[nH]c3n2)CC1 | H37Rv |  |  |  | inhibition | 6.25 µg/mL | 29%
CCN(CCO)CCNc1ccc(C)c2sc3c(Cl)cccc3c(=O)c12 | H37Rv |  |  | BACTEC | MIC |  | ≥12.5 µg/mL
Cc1cc(C2CCCC2)nc2c(C3CCCC3)cccc12 | H37Ra |  |  | BACTEC | MIC |  | 6.25 µg/mL
Oc1c(Cl)c(Oc2cc(Cl)cc(Cl)c2)cc(Oc2ccc(Cl)cc2Cl)c1Cl | H37Rv |  |  |  | MIC |  | >128 µg/mL
CC(SC(C)C(=O)N/N=C/c1c[nH]c2ccccc12)C(=O)N/N=C/c1c[nH]c2ccccc12 | H37Rv |  |  | BACTEC | MIC bound |  | >12.5 µg/mL
Clc1ccc2c(-c3ccccc3)cc(N3CCOCC3)nc2n1 | H37Rv |  |  |  | inhibition | 6.25 µg/mL | 36%

For reference, 5 entries again:

{"SMILES": "Clc1ccc2c(-c3ccccc3)cc(N3CCOCC3)nc2n1", "strain": "H37Rv", "endpoint": "inhibition", "dose": "6.25 µg/mL", "result": "36%"}
{"SMILES": "C[C@@H]1CCC23[C@H]1CC[C@@]2(C)C[C@@](C)(O)[C@H]3C", "strain": "H37Rv", "endpoint": "MIC", "result": "128 µg/mL"}
{"SMILES": "c1ccc(CCSc2nc3ccccc3[nH]2)cc1", "strain": "My 331/88", "endpoint": "MIC", "result": ">62 µM"}
{"SMILES": "Clc1cccc(CSc2nc3ccccc3[nH]2)c1", "strain": "My 331/88", "endpoint": "MIC", "result": ">250 µM"}
{"SMILES": "CCn1cc(C(=O)O)c(=O)c2cc(F)c(N3CCN(C(=O)c4ccc(Cl)cc4)CC3)cc21", "strain": "H37Rv", "read by": "BACTEC", "endpoint": "inhibition", "dose": "6.25 µg/mL", "result": "24%"}